PubChem BioAssay AID1224833 | University of Georgia, 2016

Assay: 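Host factors restraining rotavirus as candidate antiviral genes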 (primary screen)
System: monkey MA104 kidney cells
Reagents: siRNA pool against human genes, 50 nM
Duration: 48 h knock-down before infection; read 24 h after infection
Challenge: infection with rotavirus strain RV3 two days after transfection; infectious dose for this stage not given
Measurement: 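z-score of rotavirus antigen signal per well, from a fluorescent immunoassay, relative to non-targeting control wells on the same plate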
Scale: z-score vs non-targeting control: higher = more rotavirus replication than with non-targeting control
Active means: In these data the active calls have z-score vs non-targeting control at about -1 or lower, or at about 1 or higher
Meaning of the calls: active = z-score beyond 1 either way; inactive = z-score within 1 of zero
Here is a random part of about 12,000 reagents. In the full data, about 5,600 (46%) are marked active. 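Active calls cover z-scores past 1 in both directions, so they include lowered as well as raised rotavirus replication.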 A number with no mark means an inactive call. Reagents against one gene are numbered here. Reagent sequences are not shown.

target	reagent	z-score vs non-targeting control
LRIG1 (GeneID 26018)	1	-0.175
GUCD1 (GeneID 83606)	1	-1.35 (active)
SNX21 (GeneID 90203)	1	-0.392
HELLS (GeneID 3070)	1	-1.51 (active)
CXCL9 (GeneID 4283)	1	-1.25 (active)
CACFD1 (GeneID 11094)	1	-1.15 (active)
PIGZ (GeneID 80235)	1	-0.709
ST6GALNAC4 (GeneID 27090)	1	-1.17 (active)
SLC25A10 (GeneID 1468)	1	-0.748
PSMB7 (GeneID 5695)	1	1.01 (active)
NPVF (GeneID 64111)	1	-1.36 (active)
DSG2 (GeneID 1829)	1	-2.05 (active)
CIDEC (GeneID 63924)	1	1.3 (active)
FOXD4L1 (GeneID 200350)	1	1.3 (active)
ATF6 (GeneID 22926)	1	0.675
CYFIP1 (GeneID 23191)	1	-0.633
KRT9 (GeneID 3857)	1	1.08 (active)
ZNF408 (GeneID 79797)	1	-0.592
DUS4L (GeneID 11062)	1	-1.44 (active)
VPS13C (GeneID 54832)	1	-1.13 (active)
CIMAP1A (GeneID 113746)	1	0.872
WAPL (GeneID 23063)	1	0.221
TMEM31 (GeneID 203562)	1	-0.159
SNRNP70 (GeneID 6625)	1	-0.706
DGCR6 (GeneID 8214)	1	-0.031
RDM1 (GeneID 201299)	1	2.06 (active)
POP7 (GeneID 10248)	1	1.36 (active)
NCAN (GeneID 1463)	1	-1.77 (active)
MLH3 (GeneID 27030)	1	-1.37 (active)
ADAMTS14 (GeneID 140766)	1	0.947
ZNF589 (GeneID 51385)	1	-0.164
C16orf46 (GeneID 123775)	1	1.11 (active)
CLTCL1 (GeneID 8218)	1	-0.469
CCR9 (GeneID 10803)	1	1.34 (active)
TRIM16 (GeneID 10626)	1	0.749
ANGPT2 (GeneID 285)	1	-1.78 (active)
AGMAT (GeneID 79814)	1	1.54 (active)
GPX2 (GeneID 2877)	1	-1.75 (active)
KRT23 (GeneID 25984)	1	-2.36 (active)
NPFFR2 (GeneID 10886)	1	-1.97 (active)
NUP210L (GeneID 91181)	1	-1.57 (active)
QRFP (GeneID 347148)	1	0.19

Look-ups from above.
POP7 (GeneID 10248), z-score vs non-targeting control → 1.36 (active)
For “z-score vs non-targeting control”, NCAN (GeneID 1463) shows -1.77 (active)
C16orf46 (GeneID 123775), z-score vs non-targeting control: 1.11 (active)
Under “z-score vs non-targeting control”, NPVF (GeneID 64111) is entered as -1.36 (active)
Under “z-score vs non-targeting control”, CLTCL1 (GeneID 8218) is entered as -0.469
NPFFR2 (GeneID 10886), z-score vs non-targeting control = -1.97 (active)

The list goes on:
target	reagent	z-score vs non-targeting control
ATP6V0A2 (GeneID 23545)	1	0.229
ANKFN1 (GeneID 162282)	1	0.7
IGSF11 (GeneID 152404)	1	-1.72 (active)
RAD51 (GeneID 5888)	1	-2.5 (active)
CERCAM (GeneID 51148)	1	-1.5 (active)
NAA15 (GeneID 80155)	1	1.44 (active)
ZNF407 (GeneID 55628)	1	-0.59
TAX1BP3 (GeneID 30851)	1	2.19 (active)
BPI (GeneID 671)	1	-0.964
GSN (GeneID 2934)	1	0.456
TSPY1 (GeneID 7258)	1	0.885
PELI1 (GeneID 57162)	1	-0.446
GPR20 (GeneID 2843)	1	0.731
MPND (GeneID 84954)	1	1.01 (active)
AP3S1 (GeneID 1176)	1	0.0372
ZNF559 (GeneID 84527)	1	0.859
SLC2A10 (GeneID 81031)	1	0.475
SLC35E3 (GeneID 55508)	1	0.32
FAM221B (GeneID 392307)	1	0.212
IL17RC (GeneID 84818)	1	0.353
HCFC1 (GeneID 3054)	1	-1.64 (active)
AASDHPPT (GeneID 60496)	1	-1.21 (active)
HTR1B (GeneID 3351)	1	-0.528
OR2W5 (GeneID 441932)	1	-0.47
CLDN18 (GeneID 51208)	1	0.9
TEX56P (GeneID 404220)	1	-0.476
MPEG1 (GeneID 219972)	1	0.405
UBALD2 (GeneID 283991)	1	0.802
HJURP (GeneID 55355)	1	-1.77 (active)
ZNF296 (GeneID 162979)	1	2.03 (active)
SERPINA5 (GeneID 5104)	1	-1.94 (active)
PGAP6 (GeneID 58986)	1	-1.35 (active)
EPHX4 (GeneID 253152)	1	-1.85 (active)
TEX13A (GeneID 56157)	1	-0.233
FFAR3 (GeneID 2865)	1	-1.66 (active)
SLC4A8 (GeneID 9498)	1	-0.735
SPHAR (retired record) (GeneID 10638)	1	-0.369
SORBS2 (GeneID 8470)	1	0.0099
CT83 (GeneID 203413)	1	1.12 (active)
MAGOHB (GeneID 55110)	1	1.86 (active)
COPS8 (GeneID 10920)	1	2.81 (active)
NLRC4 (GeneID 58484)	1	0.573
TIMM17A (GeneID 10440)	1	-1.07 (active)
TIMCC (GeneID 84908)	1	-2.96 (active)
EVI2A (GeneID 2123)	1	0.0453
DPPA3 (GeneID 359787)	1	-0.841
FAM169BP (GeneID 283777)	1	0.96
NPS (GeneID 594857)	1	-0.761
GFPT1 (GeneID 2673)	1	-2.65 (active)
TSPAN11 (GeneID 441631)	1	-2.53 (active)
EPAS1 (GeneID 2034)	1	-1.02 (active)
KLF11 (GeneID 8462)	1	-0.518
ERICH6 (GeneID 131831)	1	1.06 (active)
ABHD16B (GeneID 140701)	1	-2 (active)
ZDHHC23 (GeneID 254887)	1	0.816
ACTG2 (GeneID 72)	1	-1.18 (active)
CLEC2D (GeneID 29121)	1	-1.54 (active)
SNTG1 (GeneID 54212)	1	1.35 (active)
PALM2AKAP2 (GeneID 445815)	1	0.673
PALM2AKAP2 (GeneID 445815)	2	1.31 (active)
PALM2AKAP2 (GeneID 445815)	3	0.215
WDR20 (GeneID 91833)	1	-2.09 (active)
CYCS (GeneID 54205)	1	-1.69 (active)
RWDD3 (GeneID 25950)	1	0.559
POLR3B (GeneID 55703)	1	-0.805
TXNRD2 (GeneID 10587)	1	0.501
OR4L1 (GeneID 122742)	1	-1.42 (active)
STRA6 (GeneID 64220)	1	-0.632
